Data as given in publication PMC3612826, “Structural-Functional Analysis of 2,1,3-Benzoxadiazoles and Their N-oxides As HIV-1 Integrase Inhibitors” (Acta Naturae, 2013).
Read-outs that look alike come from different tables or passages of the source. This is a selection: effects in other tests are not listed, and their absence says nothing.

Assays:
[1] = target: recombinant HIV-1 IN (Human immunodeficiency virus type 1 group M subtype B, UniProt P12497); experiment: Inhibition of the 3'-end processing reaction; type: biochemical; settings: read-out: Inhibitory activity, IC50, 3'-processing; IN 100 nM, U5B/U5A duplex 3 nM, […] MgCl2, 37°C, 2 h
[2] = target: wild-type HIV-1 IN (Human immunodeficiency virus type 1 group M subtype B, UniProt P12497); experiment: Inhibition of the strand transfer reaction, wild-type IN; type: biochemical
[3] = target: HIV-1 IN N155H mutant (Human immunodeficiency virus type 1 group M subtype B, UniProt P12497, N1302H); experiment: Inhibition of the strand transfer reaction, Raltegravir-resistant mutant IN
[4] = target: HIV-1 IN Q148K/G140S mutant (Human immunodeficiency virus type 1 group M subtype B, UniProt P12497, G1287S/Q1295K); experiment: as above
[5] = read-out: Inhibitory activity, IC50, strand transfer, IN 100 nM, U5B-2/U5A duplex 10 nM, […] MgCl2

Compound	IC50 [1]	IC50 [2, 5]	Strand transfer inhibited more efficiently than 3'-processing, times ([2]; ratio of Table 1 IC50 values)	IC50 ([2]; read-out: Inhibitory activity during the strand transfer reaction, wild-type, IC50, wild-type IN)	Inhibitory activity during the strand transfer reaction, wild-type, IC95 ([2]; wild-type IN, 95 % suppression)	Inhibitory activity during the strand transfer reaction, N155H mutant, IC95 ([3]; 95 % suppression)	IC50 ([3]; read-out: Inhibitory activity during the strand transfer reaction, N155H mutant, IC50)	Inhibitory activity during the strand transfer reaction, Q148K/G140S mutant, IC95 ([4]; 95 % suppression)	IC50 ([4]; read-out: Inhibitory activity during the strand transfer reaction, Q148K/G140S mutant, IC50)
O=[N+]([O-])c1cc([N+](=O)[O-])c2no[n+]([O-])c2c1	400000 nM	500000 nM							
Cc1c([N+](=O)[O-])cc([N+](=O)[O-])c2no[n+]([O-])c12	2000 nM	300 nM	6–7 times	300 nM	6800 ± 1100 nM	7600 ± 1300 nM	600 nM	1000 ± 400 nM	500 nM
